Here are results for six molecules from the supplement of paper PMC9931576.

Human monoclonal antibodies against the spike receptor-binding domain (heavy:light variable regions). IC50 against pseudoviruses bearing the spike of naturally observed variants; lower = stronger; >10 µg/ml means not reached at the top dose. No active / inactive call. The stated detection limit is 0.0005 µg/ml; values near or below 0.001 µg/ml lie at the floor of the assay. Where only a bound is given, the exact number is not on record here.

Common to all, as to experiment: pseudovirus neutralization IC50; higher = weaker neutralization
The target in experiment [1] is SARS-CoV-2 Omicron BA.1 spike pseudovirus. The protocol:
(§1)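 Single-round VSV luciferase pseudovirus mixed with antibody dilutions for 1 h and put on Huh-7 cells for about a day; IC50 from the dose curve.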

The target of experiment [2] is SARS-CoV-2 Omicron BA.2 spike pseudovirus. Here is the method:
as §1

The target in experiment [3] is SARS-CoV-2 Omicron BA.2.75 spike pseudovirus. The protocol:
as §1

The target in experiment [4] is SARS-CoV-2 Omicron BA.5 spike pseudovirus. The protocol:
as §1

The target of experiment [5] is SARS-CoV-2 Omicron BQ.1.1 spike pseudovirus. The protocol:
as §1

Experiment [6] deals with SARS-CoV-2 Omicron XBB spike pseudovirus. The protocol: as §1
Experiment [7] addresses SARS-CoV-2 early D614G spike pseudovirus. Here is the method:
as §1

B1: DH1193 (protein)
chain 1: QVQLVESGGGVVQPGRSLRLSCAASGFTFSNYGMHWVRQAPGKGLEWVTVISYDGSNKYYADSVKGRFTISRDNSKNTLYLQMNSLRAEDTAVYYCAKVLTWSIHPEDYYYGMDVWGQGTTVTVSS
chain 2: QSALTQPPSASGSPGQSVTISCTGTSSDVGGYNYVSWYQQHPGKAPKLMIYEVSQRPSGVPDRFSGSKSGNTASLTVSGLQAEDEADYYCSSYAGSNIGVFGGGTTLTVL
As for B1, the “pseudovirus neutralization IC50” value in experiment [1] was 2.88 µg/mL; in experiment [2], 3.29 µg/mL; in experiment [3] it was 2.54 µg/mL; in experiment [4] it was 2.86 µg/mL; in experiment [5], over 10 µg/mL; in experiment [6], 2.51 µg/mL. In addition, in experiment [7], the “pseudovirus neutralization IC50” value stood at 1.36 µg/mL.

B2: BD56-518 (protein)
chain 1: QVQLVQSGSELKKPGASVKVSCKASGYTLVNYAMNWVRQAPGQGLEWMGWINTKTGDPVYAQGFTGRFVFSLDTSVNTAYLQISSLKAEDTAVYYCARDSGLLSFGELFHAFDIWGRGTMVTVSS
chain 2: EIVLTQSPATLSLSPGERATLSCRASQSLNSYLVWYQQRPGQAPRLLIYDASKRATGIPARFSGSGSGTDFTLTITGLEPEDFAVYYCQQRTNWLWTFGQGTKVEIK
On to B2, for which the “pseudovirus neutralization IC50” value in experiment [1] is 0.0148 µg/mL; in experiment [2], 0.00743 µg/mL; in experiment [3], over 10 µg/mL; in experiment [4], over 10 µg/mL; in experiment [5], over 10 µg/mL; in experiment [6], over 10 µg/mL. Also, the “pseudovirus neutralization IC50” value in experiment [7] came out at 0.00506 µg/mL.

B3: BD56-522 (protein)
chain 1: QVQLVESGGGVVQPGRSLRLSCAASGFTFSNYAMHWVRQAPGKGLEWVAVILYDGSYKAYADSVKGRFTISRDNSKNTLYLQMNSLRADDTAVYYCARDQGVTVTHFDYWGQGTLVTISS
chain 2: DIQMTQSPSSLSASIGDRVTITCRASQRIGSYLNWYQQKPGKAPKLLIYTTSSLQSGVPSRFSGSGSGTDFTLTISNLQPEDFATYYCQQSYNTPPWTFGQGTKVEIK
In the case of B3, the “pseudovirus neutralization IC50” value was 6.32 µg/mL in experiment [1]; 5.77 µg/mL in experiment [2]; 9.19 µg/mL in experiment [3]; 5.06 µg/mL in experiment [4]; 4.56 µg/mL in experiment [5]; 4.27 µg/mL in experiment [6]. The “pseudovirus neutralization IC50” value in experiment [7] was 1.01 µg/mL.

B4: BD56-531 (protein)
chain 1: QVQLVQSGSELKKPGASVKVSCKASGYTFTDSSINWVRQAPGQGLEWMGWINTNTGTPTYAQGFTGRFVFSLDTSVTTAYLQISSLKAEDTAVYYCARIGAWYSSSWLDAAFDIWGQGTMVTVSS
chain 2: DIVMTQSPDSLAVSLGERATINCKSSQSVLYSSNNENLLAWYQQKPGQSPKLLINWASTRESGVPDRFSGSGSGTDFTLTISSLQPEDVAVYYCQQYFSTPLTFGGGTKVEIK
As to B4, the “pseudovirus neutralization IC50” value in experiment [1], in experiment [2], in experiment [3], in experiment [4], in experiment [5] and in experiment [6] was over 10 µg/mL throughout. The “pseudovirus neutralization IC50” value in experiment [7] is 0.0156 µg/mL.

B5: BD56-524 (protein)
chain 1: QVTLRESGPALVKPTQTLTLTCTFSGFSLTTSGLCVTWVRQPPGKALEWLALIDWDDDKKYSTSLKTRLTISKDTSRNQVVLTMTNMDPVDTATYYCARAFYDYDSSNYFNGFGFDFWGRGILVTVSS
chain 2: EIVLTQSPGTLSLSPGERATLSCRASQSIDSRYLVWYQQKPGQAPRLIIYGASRRATGIPDRFSGSGSGTDFTLTISRLEPEDFAVYYCQQFGSSPWTFGQGTKVEFK
B5: the “pseudovirus neutralization IC50” value was 0.0024 µg/mL in experiment [1]; 0.0005 µg/mL in experiment [2]; 0.000878 µg/mL in experiment [3]; 0.000509 µg/mL in experiment [4]; over 10 µg/mL in experiment [5]; over 10 µg/mL in experiment [6]. Moreover, the “pseudovirus neutralization IC50” value in experiment [7] was found to be 0.001 µg/mL.

B6: BD56-520 (protein)
chain 1: EVQLVESGGGLVQPGGSLRLSCAASGFTFSNYWMTWVRQGQGKGLDWVANINQHGSEKSYVDSVKGRFTVSRDNAKNSLYLQMNSLRAEDTAVYYCARAWSPSSCYYDNSDYYGCAFGIWGQGTMVTVSS
chain 2: DIQMTQSPSSLSASVGDSVAITCRASQTVSRYLNWYQQKPGKAPRLLIYAASSLQSGVPSRFSGSGSGTDFTLTISSLQPEDFATYYCQQSYSTPPTFGQGTRLEIK
As to B6, the “pseudovirus neutralization IC50” value in experiment [1] is 0.0345 µg/mL; in experiment [2], 0.0741 µg/mL; in experiment [3], 0.0725 µg/mL; in experiment [4] it was 0.0706 µg/mL; in experiment [5], over 10 µg/mL; in experiment [6], over 10 µg/mL. Further, in experiment [7], the “pseudovirus neutralization IC50” value was 0.0342 µg/mL.
